Compound potency records, mixed from different reports. Data source: NIAID ChemDB in PubChem.

All rows: whole-cell or culture tests; organism: Hepatitis C virus; read by: luciferase; read-out: inhibition

Percent inhibition refers to the dose given; in toxicity tests it is the harm to the cells. An empty or dashed field is not shown. Conditions beyond the fields shown may differ between rows.

smiles,strain or isolate,changes,cells,tested at,conditions,result
O=C1NC(=Nc2nnc(-c3cccc(F)c3)s2)SC1=Cc1cccc(F)c1,GT1b,,Huh7,50 µM,,79%
COc1cc([C@@H]2O[C@H](c3cc(OC)c4c(c3)OCO4)[C@@H](C)[C@@H]2C)cc(OC)c1OC,Subgenomic replicon S52,P1220S D1430H S2204I,Huh7.5,12.5 µM,,98%
O=C(O[C@@H]1Cc2c(O)cc(O)cc2O[C@@H]1c1ccc(O)c(O)c1)c1cc(O)c(O)c(O)c1,1a,,,50 µM,,40%
Cc1ccc2nc(Nc3cccc([N+](=O)[O-])c3)sc2c1,,,Huh7,20 µM,,76%
O=C1NC(=Nc2nnc(-c3ccccc3Cl)s2)SC1=Cc1cccc(F)c1,GT1b,,Huh7,50 µM,,89%
Cc1ccc2nc(Nc3cc(O)cc([N+](=O)[O-])c3)sc2c1,,,Huh7,5 µM,,23%
COc1nc(N)nc2c1ncn2[C@@H]1O[C@H](COP(=O)(N[C@@H](C)C(=O)OC(C)C)Oc2ccccc2)[C@@H](O)[C@@]1(C)F,Con1,,HepG2,0.0085 µM,,90%
O=C(N[C@@H](C(=O)N1CCC[C@H]1c1ncc(-c2ccc(-c3ccc(-c4cnc([C@@H]5CCCN5C(=O)[C@H](NC(=O)C5CC5)c5ccccc5)s4)cc3)cc2)s1)c1ccccc1)C1CC1,genotype 1b Con1,,Huh7.5,0.0000082 µM,,90%
COc1nc(N)nc2c1ncn2[C@@H]1O[C@H](COP(=O)(N[C@@H](C)C(=O)OCC(C)(C)C)Oc2cccc3ccccc23)[C@@H](O)[C@@]1(C)O,2a,,Huh7,0.0065 µM,24 h,90%
O=C1NC(=Nc2nnc(-c3ccc(Cl)cc3Cl)s2)SC1=Cc1c(Cl)cccc1Cl,GT1b,,Huh7,50 µM,,58%
Cc1ccc2nc(Nc3cccc(Cl)c3)sc2c1,,,Huh7,20 µM,,31%
COc1cc([C@H]2O[C@@H](c3cc(OC)c4c(c3)OCO4)[C@@H](C)[C@@H]2C)cc2c1OCO2,Subgenomic replicon S52,T1056A T1429I S2204I,Huh7.5,25 µM,,80%
O=C(N[C@@H](C(=O)N1CCC[C@H]1C(=O)Nc1nc(-c2ccccc2)cs1)c1ccccc1)C1CC1,genotype 1b,,Con-1,0.0564 µM,,90%
COC(=O)c1c(C)cc(OC(=O)c2c(C)cc(O)c(C(=O)O)c2O)c(C)c1O,FL-J6/JFH-5'C19Rluc2AUbi,,Huh7.5.1,100 µM,,0%
O=C1NC(=Nc2nnc(-c3ccccc3Cl)s2)SC1=Cc1c(Cl)cccc1Cl,GT1b,,Huh7,50 µM,,88%

A second listing of 2 rows from above:

smiles | strain or isolate | changes | cells | tested at | conditions | result
COC(=O)c1c(C)cc(OC(=O)c2c(C)cc(O)c(C(=O)O)c2O)c(C)c1O | FL-J6/JFH-5'C19Rluc2AUbi |  | Huh7.5.1 | 100 µM |  | 0%
COc1nc(N)nc2c1ncn2[C@@H]1O[C@H](COP(=O)(N[C@@H](C)C(=O)OCC(C)(C)C)Oc2cccc3ccccc23)[C@@H](O)[C@@]1(C)O | 2a |  | Huh7 | 0.0065 µM | 24 h | 90%